Laboratory results from patent publication US20260031189A1, “METHOD AND SYSTEMS FOR PREDICTION OF HLA CLASS II-SPECIFIC EPITOPES AND CHARACTERIZATION OF CD4+ T CELLS” (BioNTech US Inc., priority 2022, published 2026).
Values joined by “and” are separate entries in the source; they are usually repeats but may differ in a detail not shown here. Identical values can stand only once.

What was measured:
[1] = target: DRB1*01:01 (High PTM) (Homo sapiens)
fDR1 (Homo sapiens) [2] = assay: FP competition assay, average IC50 of n=2, Ni purified fDR1
fDR1 (Homo sapiens) [3] = assay: FP competition assay, average IC50 of n=2, Ni purified full length DR1 (fDR1)
fDR1 (Homo sapiens) [4] = assay: FP competition assay, average IC50 of n=2, L243 purified fDR1

Substance: HA peptide
- percent printed in the APC / PE flow plot [1]: 1.78% and 0.34% and 0.15%
- IC50 (fDR1 (Homo sapiens) [2]): 33 nM
- IC50 (fDR1 (Homo sapiens) [3]): 33 nM
- IC50 (fDR1 (Homo sapiens) [4]): 41 nM
